Values from PubChem BioAssay AID624099 (ICCB-Longwood, 2012)
Purpose: 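Human genes that papillomavirus E2 requires to repress the HPV18 LCR promoter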 (primary screen). Cells: human C33A cervical carcinoma cells (HPV-negative) stably expressing BPV1 E2 and an HPV18 LCR luciferase reporter. Knock-down reagent: siRNA pool against human genes, 40 nM. Time to read-out: 72 h. Measurement: 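HPV18 LCR reporter light per well, converted to plate-wise z-scores that exclude control wells, and averaged over triplicate plates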. Direction: mean z-score and z-score: higher = stronger reporter signal, weaker E2 silencing. Call rule: 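Hit if mean z-score reaches 2 and two or more of three replicate z-scores also reach 2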.
The deposit covers about 21,000 reagents; below is a random part of them. 497 of all reagents (2.4%) count as active. 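Higher z means weaker E2 silencing; only reporter increases were scored, and knock-downs that hurt cell survival may mask genuine repressor factors.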

RPRML: mean z-score = -0.79; z-score, replicate A = -0.83; z-score, replicate B = -0.85; z-score, replicate C = -0.68; outcome = inactive
SUSD2: mean z-score = 0.44; z-score, replicate A = 0.39; z-score, replicate B = 0.5; z-score, replicate C = 0.44; outcome = inactive
IFFO2: mean z-score = -1.82; z-score, replicate A = -2.16; z-score, replicate B = -1.77; z-score, replicate C = -1.54; outcome = inactive
E4F1: mean z-score = -2.19; z-score, replicate A = -2.19; z-score, replicate B = -2.09; z-score, replicate C = -2.29; outcome = inactive
RAB29: mean z-score = 3.08; z-score, replicate A = 2.83; z-score, replicate B = 3.14; z-score, replicate C = 3.28; outcome = active
TRPM4: mean z-score = -1.28; z-score, replicate A = -1.18; z-score, replicate B = -1.32; z-score, replicate C = -1.33; outcome = inactive
POU2AF2: mean z-score = 0.37; z-score, replicate A = 0.23; z-score, replicate B = 0.71; z-score, replicate C = 0.17; outcome = inactive
MGARP: mean z-score = 0.69; z-score, replicate A = 0.75; z-score, replicate B = 0.96; z-score, replicate C = 0.35; outcome = inactive
TNR: mean z-score = 0.27; z-score, replicate A = 0.29; z-score, replicate B = 0.36; z-score, replicate C = 0.16; outcome = inactive
WNT11: mean z-score = 1.36; z-score, replicate A = 1.19; z-score, replicate B = 1.6; z-score, replicate C = 1.3; outcome = inactive
GARS1: mean z-score = 1.46; z-score, replicate A = 1.38; z-score, replicate B = 1.78; z-score, replicate C = 1.21; outcome = inactive
ZBTB39: mean z-score = -0.38; z-score, replicate A = -0.16; z-score, replicate B = -0.62; z-score, replicate C = -0.37; outcome = inactive
NEDD4: mean z-score = 0.28; z-score, replicate A = 0.02; z-score, replicate B = 0.57; z-score, replicate C = 0.24; outcome = inactive
SNCA: mean z-score = 1.34; z-score, replicate A = 1.27; z-score, replicate B = 1.13; z-score, replicate C = 1.62; outcome = inactive

2 entries already listed, arranged by “mean z-score”, low to high.
E4F1: mean z-score = -2.19; z-score, replicate A = -2.19; z-score, replicate B = -2.09; z-score, replicate C = -2.29; outcome = inactive
IFFO2: mean z-score = -1.82; z-score, replicate A = -2.16; z-score, replicate B = -1.77; z-score, replicate C = -1.54; outcome = inactive
